Like-named read-outs stand apart in the source and are kept apart here. The amount applied is not stated for every result. Which two values form the index is not stated here.
Tested on: HIV-1 attachment to HeLa CD4 LTR B-gal cells
Test: Inhibition of attachment assay
Format: cell-based
Description: The attachment assay was performed with the HeLa CD4 LTR B-gal cells available from the AIDS Research and Reference Reagent Repository. […] HeLa CD4 LTR B-gal cells express cell surface CD4 and contain an LTR B-galactosidase reporter construct. Upon infection either the Tat protein incorporated into the virion or new Tat produced following virus integration and transcription trans-activate the LTR B-gal reporter, leading to expression of the B-galactosidase enzyme. HeLa CD4 LTR B-gal cells are routinely cultured with the required selection antibiotics and scrended for mycoplasma contamination. Twenty-four h prior to initiation of the assay cells were trypsinized, counted and 1×10^4 cells placed in a 0.2 cm well in media without selection antibiotics. Media was removed and compound media placed on the cells and incubated for 15 to 30 min at 37° C. A known titer of virus was then added to the wells and the incubation continued for 1 h. At the end of the incubation the wells were washed 6 times with media and the culture continued for 48 h. At 48 h the wells were washed one time with PBS and B-galactosidase enzyme expression determined by chemiluminescence per manufacturers instructions (Tropix Gal-screen TM, Tropix, Bedford, Mass.). Compound toxicity was monitored on sister plates using MTS dye reduction. (See Tables 14 through 16 and FIGS. 21 and 22).

How did the “Therapeutic Index” value turn out when `COc1cc(-c2ccc(/N=N/c3ccc4c(S(=O)(=O)O)cc(S(=O)(=O)O)c(N)c4c3O)c(OC)c2)ccc1/N=N/c1ccc2c(S(=O)(=O)O)cc(S(=O)(=O)O)c(N)c2c1O` [Chicago Sky Blue] was run?
The value was >33.

And the “Therapeutic Index” value (listed as CHICAGO SKY BLUE)?
The value was “TI = >33”.

From patent US20030181436A1, “Treatment for AIDS, HIV, and other related diseases and compounds for use therewith” (priority 2001, published 2003)
